Values from PubChem BioAssay AID1259414 (Drosophila RNAi Screening Center, 2018)
In all, the deposit lists about 24,000 reagents; this is a random part of those with a known target gene and a result. Over the whole deposit, about 1,210 (5%) were called active. 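Inactive calls also include excluded dsRNAs with several or no targets, genes unexpressed in JW18, and well A1, regardless of score.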 Names joined by + are all predicted targets of the reagent. Reagent sequences are not shown.

Assay: 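Genome-wide screen for host control of endosymbiont load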 (primary screen)
Cells: Drosophila JW18 cells infected with Wolbachia
Reagent: long dsRNA against Drosophila genes, 0.25 µg dsRNA per well of a 384-well plate
Timing: 5 days
Conditions: cells persistently infected with Wolbachia before knock-down; no added drug
Measured: 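Automated imaging of bacterial rRNA staining divided by host cell count, reported as plate-normalised robust z-score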
Direction: Wolbachia per cell robust z: higher = more Wolbachia per host cell than the plate typical
Rule for the call: 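Active if absolute robust z reaches 1.5 in two or more of three replicates, leaving out multi- or no-target dsRNAs, genes unexpressed in JW18 and A1 wells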

target gene	DRSC id	Wolbachia per cell robust z, rep 1	Wolbachia per cell robust z, rep 2	Wolbachia per cell robust z, rep 3	Outcome
Spn77Ba	DRSC10693	-1.08	0.697	-0.225	inactive
CG31819	DRSC01532	1.03	-1.09	-0.76	inactive
CG31819	DRSC27735	-2.59	0.709	0.946	inactive
Sar1	DRSC17049	-1.14	-7.88	-0.697	inactive
Sar1	DRSC22115	0.243	0.258	0.707	inactive
Sar1	DRSC24141	1.5	5.56	5.07	active
Chchd2	DRSC19931	0.121	0.01	0.323	inactive
Chchd2	DRSC29551	-1.38	0.101	-0.305	inactive
CG30325	DRSC05685	-0.555	-0.0574	1.06	inactive
Eip63E	DRSC08658	0.254	0.198	0.422	inactive
Eip63E	DRSC40718	0.225	0.258	1.06	inactive
CG7102	DRSC02647	-0.126	-0.835	0.111	inactive
CG7102	DRSC03007	-1.15	0.557	0.285	inactive
CG32320	DRSC21514	0.364	-1.06	0.235	inactive
CG32320	DRSC28106	0.534	-0.17	0.526	inactive
Dyb	DRSC07208	-1.37	0.157	0.278	inactive
Dyb	DRSC22862	-1.12	-0.429	-0.445	inactive
Dyb	DRSC29699	-1.71	0.874	-8.52	active
Mcm10	DRSC03162	0.622	0.963	0.75	inactive
Mcm10	DRSC27996	0.575	0.725	1.02	inactive
U2A	DRSC06445	1.69	0.173	-1.12	inactive
U2A	DRSC28070	0.133	2.33	1.88	active
CG8915	DRSC20119	-3.4	-0.374	0.443	inactive
Tsp42El	DRSC06186	-0.398	0.375	0.297	inactive
dom	DRSC04558	0.875	-0.446	-4.24	inactive
dom	DRSC04559	1.61	1.33	1.23	inactive
dom	DRSC29669	1.12	1.52	1.48	inactive
Ddx1	DRSC11862	0.205	-0.0152	0.083	inactive
CG11703	DRSC14356	-0.0522	0.548	0.0985	inactive
CG11703	DRSC26507	-9.31	0.162	0.448	inactive
CG43123	DRSC05049	-0.984	0.0609	-1.8	inactive
CG4438	DRSC02746	-0.243	-3.49	0.548	inactive
CG4438	DRSC25747	-1.01	0.69	-3.53	inactive
CG11248	DRSC11644	-0.406	0.499	-0.134	inactive
CG33191 + Pif1B	DRSC12706	-0.888	-0.655	-0.0862	inactive
rgr	DRSC06487	0.863	0.22	-0.616	inactive
rgr	DRSC07229	-0.674	-0.0157	-1.19	inactive
Vha16-3	DRSC10872	-0.368	-1.19	-0.829	inactive
Vha16-3	DRSC25513	-0.515	-2.03	-0.244	inactive
Oda	DRSC07626	0.598	-0.067	0.471	inactive
Oda	DRSC28076	-0.39	1.36	-1.84	inactive
CG10477	DRSC09732	-0.953	-0.0387	0.681	inactive
CG10477	DRSC23989	-0.936	-0.988	0.548	inactive
CG12112	DRSC17809	0.879	0.525	-0.0837	inactive
Obp84a + Dtwd2	DRSC26806	0.785	0.255	0.904	inactive
ifc	DRSC03549	0.542	0.203	0.583	inactive
CG17754	DRSC18131	0.0189	-0.289	1.56	inactive
CG11414	DRSC04110	-1.36	-0.149	-1.95	inactive
CG6006	DRSC13137	-0.148	-0.728	-2.28	inactive
CG6006	DRSC15946	0.693	1.26	0.912	inactive
Wnt6	DRSC02795	-0.0223	-0.195	-1.07	inactive
Wnt6	DRSC26973	-0.229	0.362	-1.94	inactive
Cpr49Ab	DRSC05341	0.465	1.12	1.02	inactive
Cpr49Ab	DRSC25034	1.16	0.291	1.33	inactive
RpS16	DRSC04442	1.62	1.22	1.91	active
RpS16	DRSC29812	2.02	1.44	3.15	active
CG33272	DRSC09116	1.19	0.713	0.9	inactive
CG2100	DRSC12303	-2.27	0.599	0.538	inactive
Oatp30B	DRSC02727	-1.05	0.225	0.0658	inactive
Atg8a	DRSC18024	0.424	0.656	0.623	inactive
Atg8a	DRSC24298	0.427	-0.539	0.661	inactive
Jon99Fii	DRSC15430	-0.062	-0.457	-0.648	inactive
CG5861	DRSC02907	-9.22	-2.36	-0.128	active
sphe	DRSC20203	0.164	0.463	-0.998	inactive
CCAP-R	DRSC14891	-0.0393	0.293	0.437	inactive
CCAP-R	DRSC15967	-3.69	0.391	1.88	inactive
CCAP-R	DRSC29494	0.419	-0.025	0.049	inactive
Ir52b	DRSC06263	-3.12	-0.297	-0.418	inactive

Copied from the list:
For “Outcome”, CG33191 + Pif1B [DRSC12706] shows inactive
dom [DRSC29669], Outcome = inactive
dom [DRSC04558], Wolbachia per cell robust z, rep 1: 0.875
Value of CG33272 [DRSC09116] in “Outcome”: inactive
For “Wolbachia per cell robust z, rep 1”, Spn77Ba [DRSC10693] shows -1.08
Dyb [DRSC22862], Outcome: inactive
